# Experimental data taken from PMC9457600, “Synthesis, Leishmanicidal, Trypanocidal, Antiproliferative Assay and Apoptotic Induction of (2-Phenoxypyridin-3-yl)naphthalene-1(2H)-one Derivatives” (Molecules, 2022).
# Columns and labels:
# K562 = test: MTS antiproliferative assay K562; format: cell-based, human; conditions: average IC50 of non-cancer cell line / IC50 of cancer cell line
# Source text: (§1) The cell lines used were acquired from the American Type Culture Collection (ATCC), CCRF-CEM (T lymphoblastic leukemia), K562 ([…]), U2OS (osteosarcoma), HCT116 (colon carcinoma), A549 (lung adenocarcinoma) and HCT116p53−/− (HCT116 cell line mutated in p53) Horizon Discovery Ltd., (Waterbeach, Cambridge, United Kingdom).
# (§2) In our laboratory, IMTM, we generated the daunorubicin-resistant subline of CCRF-CEM cells (CEM-DNR bulk) and paclitaxel-resistant subline K562-TAX, as described previously. […] Both ABC transporters are involved in drug resistance. As a control, human fibroblasts MRC-5 and BJ cell lines were used. […] Adherent cells were passaged using PBS containing 0.25% trypsin plus 0.01% EDTA (ethylenediamine tetraacetic acid) every 2–3 days.
# (§3) The antiproliferative activity of compounds was determined using a standard 3-(4,5-dimethylthiazol-2yl)-5-(3-carboxymethoxyphenyl)-2-(4-sulfophenyl)-2H-tetrazolium (MTS) reduction assay on a robotic high throughput screening platform (HighResBio, Boston, MA, USA) following treatment of cells for 3–7 days. The IC50 values were calculated from the appropriate dose–response curves with Dotmatics software (San Diego, CA, USA).
# K562-TAX = test: MTS antiproliferative assay K562-TAX; format: cell-based, human; conditions: average IC50 of non-cancer cell line / IC50 of cancer cell line
# Source text: as §1, §2, §3
# A549 = test: MTS antiproliferative assay A549; format: cell-based, human; conditions: average IC50 of non-cancer cell line / IC50 of cancer cell line
# Source text: as §1, §2, §3
# U2OS = test: MTS antiproliferative assay U2OS; format: cell-based, human; conditions: average IC50 of non-cancer cell line / IC50 of cancer cell line
# Source text: as §1, §2, §3
# CCRF-CEM = test: MTS antiproliferative assay CCRF-CEM; format: cell-based, human; conditions: average IC50 of non-cancer cell line / IC50 of cancer cell line
# Source text: as §1, §2, §3
# [1] = tested on: promastigotes of Leishmania (V.) braziliensis strain MHOM/CO/87/UA301; test: MTT viability of L. braziliensis promastigotes; format: cell-based;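 note: promastigote proliferation in 96-well plates, MTT reduction read at 570 nm, EC50 derived from growth curves, cytotoxicity CC50 likewise by MTT in BMDM and VERO cells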
SMILES,therapeutic index (TI) K562 (K562),therapeutic index (TI) K562-TAX (K562-TAX),therapeutic index (TI) A549 (A549),therapeutic index (TI) U2OS (U2OS),therapeutic index (TI) CCRF-CEM (CCRF-CEM),"times more active against the parasites than on the host cells, versus miltefosine SI ([1]; BMDM) [times]","times more active against the parasites than on the host cells, versus miltefosine SI ([1]; VERO)"
"COc1ccc2c(c1)CC/C(=C\c1cccnc1Oc1ccc(F)cc1)C2=O [Compound 14, (E)-2-{[2-(4-Fluorophenoxy)pyridin-3-yl]methylene}-3,4-dihydro-6-methoxynaphthalen-1(2H)-one]",8.7,,,,,,
"COc1ccc2c(c1)C(=O)/C(=C/c1cccnc1Oc1ccc(Br)cc1)CC2 [Compound 19, (E)-2-{[2-(4-Bromophenoxy)pyridin-3-yl]methylene}-3,4-dihydro-7-methoxynaphthalen-1(2H)-one]",,12,,,,,
"COc1ccc2c(c1)CC/C(=C\c1cccnc1Oc1ccc(Cl)cc1)C2=O [Compound 22, (E)-2-{[2-(4-Chlorophenoxy)pyridin-3-yl]methylene}-3,4-dihydro-6-methoxynaphthalen-1(2H)-one]",12.8,,5.1,6.2,9.6,,
"COc1ccc2c(c1)C(=O)/C(=C/c1cccnc1Oc1ccc(F)cc1)CC2 [Compound 15, (E)-2-{[2-(4-Fluorophenoxy)pyridin-3-yl]methylene}-3,4-dihydro-7-methoxynaphthalen-1(2H)-one]",,2.5,,,,,
"COc1ccc2c(c1)CC/C(=C\c1cccnc1Oc1ccc(Br)cc1)C2=O [Compound 18, (E)-2-{[2-(4-Bromophenoxy)pyridin-3-yl]methylene}-3,4-dihydro-6-methoxynaphthalen-1(2H)-one]",11.5,2.8,5.2,6.9,8.4,,
"COc1ccc2c(c1)C(=O)/C(=C/c1cccnc1Oc1ccc(Cl)cc1)CC2 [Compound 23, (E)-2-{[2-(4-Chlorophenoxy)pyridin-3-yl]methylene}-3,4-dihydro-7-methoxynaphthalen-1(2H)-one]",,3.1,,,,≥ 35.1,at least 3.5 times
